# Results of single-concentration screens

The values are deposited in ChEMBL (CHEMBL3988442, “University of Dundee, Small-Polar-MMV Screening Library” (2021)).

A: 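Whole-cell growth test on Mycobacterium tuberculosis, read after 3 days in glucose-containing 7H9 medium; the read-out is not stated. Tested at 500 µM. The record gives no direction; compounds that gave an IC50 in retests scored well above the rest, so higher reads as more growth inhibition. Of about 18,000 compounds tested this way, about 1,400 (7.9%) reached 50% or more in at least one test.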
B: 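Phenotypic screen: M. tuberculosis growth, cholesterol and DPPC medium, 4 days; the read-out is not stated. Compounds at 500 µM. Direction is inferred from retests: higher values go with more growth inhibition. About 18,000 compounds were tested under these conditions; 5% (about 900) showed 50% or more at least once.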

Values are the deposited “Percent Effect”, in %. The record does not define 0% and 100%; most values in the screen are far below 50% and negative numbers occur (in some assays of this library far below -100). The entries come from a sample that favours strong results.

With CC1CN(c2ccc(CNc3nccs3)cn2)CCO1 (stereo not shown) the screen gave B: 39.84%. CC1(C)CCC(CO)NC1 (stereo not shown) gave A: 3.608%. Result for CC(C)Sc1nnc(-c2cccnc2)o1 was A: 67.65%; B: 69.45%. Cn1ccsc1=NC(=O)c1cnc(C2OCCO2)s1 read A: 20.63%. With CN(CC(N)=O)C(=O)C(C)(C)c1ccc(Cl)cc1 the screen gave A: 14.24%.

With COC(=O)N1CCC(Nc2nnc(C(F)(F)F)s2)CC1 the screen gave A: 56.92%; B: 66.45%. Result for CC(C)NC(=O)CNCc1ccc(Br)o1 was A: 46.33%; B: 37.43%. CCCN1CCC(NC(=O)C2CCC2)CC1 read A: -3.596%. With CS(=O)(=O)N1CCC(C(=O)N2CCCC2)CC1 the screen gave A: 9.208%. With COCCNCCOc1ccc(C)cc1 the screen gave A: 2.407%.

CCn1ccnc1CN(C)CC1CCN(CCO)CC1 read A: 26.93%. With CCC(=O)NCCNc1ccc2ccccc2n1 the screen gave A: 31.55%; B: 11.9%. With Cc1n[nH]c(SCc2nc(-c3ccccn3)no2)n1 the screen gave A: 15.59%. Result for CC(C)Oc1cccc(CN)c1 was A: 42.37%; B: 41.01%. For CC(CN)c1ccccc1 (stereo not shown) the result was B: -21.78%.

For NC(=O)c1cc(OC2CCNCC2)ccn1 the result was B: 1.408%. Cc1cc(C)n2c(SCCC(N)=O)nnc2n1 gave B: -14.6%. N#Cc1ccccc1OCC(=O)NC(=O)c1ccco1 gave A: 0.3732%. Result for Cc1ccncc1NC(=O)CCCc1ccccn1 was A: -8.035%. CC1Oc2ccc(NC(=O)c3ccco3)cc2NC1=O (stereo not shown) read B: 28.05%.

Nc1ccn(Cc2ccccc2)n1 gave B: 19.05%. For COc1cc2c(cc1OC)CN(C(=O)CCCN)CC2 the result was A: 23.55%. C[C@@H](O)CNCC1=Cc2ccccc2OC1 read B: 5.82%. COC(=O)N1CCC(NC(=O)CCc2ccsc2)C1 (stereo not shown) gave B: 41.68%. CCc1ccc(C(=O)NC(C)c2cccnc2)o1 (stereo not shown) read A: 53.68%.

For O=C(CSc1nnc2n1CCCCC2)N1CCCC1 the result was A: 8.076%. With CN(c1ccc(CN)cc1)S(C)(=O)=O the screen gave A: 2.336%. CN(CCS(N)(=O)=O)Cc1cccc(OC(F)(F)F)c1 read A: 44.71%. CCOc1ccc(C(C)=O)cc1CN1CCCC1 read A: 62.74%. COCCNCC(=O)Nc1cccc(S(N)(=O)=O)c1 gave A: 2.489%.

CC(C)CCn1ccc(NC(=O)C2(O)CCC2)n1 gave A: 48.76%; B: 65.4%. CNS(=O)(=O)c1ccc(NCc2ccco2)cc1OC gave A: 67.25%; B: 85.58%. O=C(CN1CCCC1)NCC1COc2ccccc2O1 (stereo not shown) read A: 8.242%.

The first 3 entries again:

CC1CN(c2ccc(CNc3nccs3)cn2)CCO1 (stereo not shown) gave B: 39.84%.
CC1(C)CCC(CO)NC1 (stereo not shown) gave A: 3.608%.
CC(C)Sc1nnc(-c2cccnc2)o1 gave A: 67.65%; B: 69.45%.